Measured values from several laboratories, pooled; numbers as filed in NIAID ChemDB.

Common to all: growth or infection tests; agent: HIV-1

Rows are shuffled and stem from different studies.

SMILES,endpoint,strain or isolate,cell line,method,changes,result
c1cc(CN2CCCNCCNCCCNCC2)ccc1CN1CCCNCCNCCCNCC1,EC50,RF,PBMC,p24,-,0.005 µg/mL
Cc1cn([C@H]2C[C@H](N=[N+]=[N-])[C@@H](CO)O2)c(=O)[nH]c1=O,EC50,IIIB,MT-4,cytopathic effect / MTT,-,0.0019 µM
O=C1CSC(c2c(Cl)cccc2Cl)N1C1CCCCC1,EC50,IIIB,MT-4,cytopathic effect,-,4.24 µM
[N-]=[N+]=N[C@H]1C[C@H](n2ccc(N)nc2=O)O[C@@H]1CO,EC50,IIIB,MT-4,cytopathic effect,-,7.6 µM
COC(=O)[C@H](C)NP(=O)(OC[C@H]1O[C@@H](n2cc(C)c(=O)[nH]c2=O)C[C@@H]1N=[N+]=[N-])Oc1ccc(Br)cc1,EC50,IIIB,PBMC,p24 / ELISA,-,0.006 µM
Nc1cccc(CN2C(=O)N(Cc3cccc(N)c3)[C@H](Cc3ccccc3)[C@H](O)[C@@H](O)[C@H]2Cc2ccccc2)c1,EC50,E (PR M46L V82V/I I84V/I),MT-2,virus yield,PR-M46L V82V+I I84V+I,<0.912 µM
Nc1ccn([C@H]2C[C@H](F)[C@@H](CO)O2)c(=O)n1,EC50,IIIB,MT-4,cytopathic effect,-,16 µM
C1CNCCNCC(C2CNCCNCCCNCCNC2)CNCCNC1,EC50,IIIB,MT-4,MTT,-,0.3 µg/mL
Nc1ncnc2c1ncn2CCOCP(=O)(O)O,EC50,-,CEM,cytopathic effect / MTT,-,3.7 µM
Cc1ccccc1Cc1cccc(C(=O)CC(=O)C(=O)O)c1,EC50,-,-,p24,INTG-N155S,1.2 µM
Cc1nc(C)c([C@H](OC(C)(C)C)C(=O)O)c(N2CCC(C)(C)CC2)c1-c1ccc2c(c1)CCN(C1=NOC3C=CC=CC13)C2,EC50,NL4-3,MT-2,luciferase,-,0.005 µM
Nc1nc2c(ncn2[C@H]2C=C[C@@H](CO)C2)c(=O)[nH]1,EC50,-,CEM,cytopathic effect / XTT,-,0.15 µg/mL
COC(=O)[C@@H]1CCCN1P(=O)(OC[C@H]1O[C@@H](N2C(=O)NC(=O)C(C)(Br)C2OC)C[C@@H]1N=[N+]=[N-])Oc1ccc(Br)cc1,EC50,IIIB,PBMC,p24 / ELISA,-,0.049 µM
C1CNCCNCCCN(CCN2CCCNCCNCCCNCC2)CCNC1,EC50,IIIB,MT-4,MTT,-,8.5 µg/mL
O=c1ccn([C@H]2CC[C@@H](CO)O2)c(=O)[nH]1,EC50,IIIB,MT-4,cytopathic effect,-,210 µM
COc1cc(=O)n(C)c2ccccc12,EC50,IIIB,H9,p24,-,0.625 µg/mL
Cc1cccc(N2C(=O)CSC23CCCCC3)n1,EC50,IIIB,MT-4,cytopathic effect,-,362 µM
CCNc1n[nH]c2ccc(CN3C(=O)N(Cc4ccc5[nH]nc(NCC)c5c4)[C@H](Cc4ccccc4)[C@H](O)[C@@H](O)[C@H]3Cc3ccccc3)cc12,EC50,RF,MT-2,-,-,<0.065 µM
O=Cc1ccc(O)cc1,EC50,IIIB,H9,p24,-,3.28 µg/mL
Cc1cn([C@H]2C[C@H](N=[N+]=[N-])[C@@H](CO)O2)c(=O)[nH]c1=O,EC50,C011590,PBMC,p24,-,0.02 µM
O=C1CCSC(c2c(F)cccc2F)N1Cc1ccco1,EC50,IIIB,MT-4,cytopathic effect,RT,37.5 µM
N#CCN1C(=O)N(Cc2ccccc2)S(=O)(=O)c2cscc21,EC50,RF,MT-4,syncytia,-,2.4 µM
CCCCCN1C(=O)N(Cc2ccc3[nH]nc(N)c3c2)[C@H](Cc2ccccc2)[C@H](O)[C@@H](O)[C@H]1Cc1ccccc1,EC50,RF,MT-2,-,-,<0.203 µM
CC(C)(C)NC(=O)[C@@H]1C[C@@H]2CCCC[C@@H]2CN1C[C@@H](O)[C@H](Cc1ccccc1)NC(=O)[C@H](CC(N)=O)NC(=O)c1ccc2ccccc2n1,EC90,Subtype B isolate,PBMC,RT activity,-,0.019 µM
COc1cc2c3cc1Oc1c(O)c(OC)cc4c1C(Cc1ccc(cc1)Oc1cc(ccc1O)CC3N(C)CC2)N(C)CC4,EC50,IIIB,MT-4,cytopathic effect / visual reading,-,<31.3 µg/mL
CNC(=O)[C@@H](NC(=O)[C@H](CCc1ccccc1)[C@H](O)[C@@H](O)[C@@H](CCc1ccccc1)C(=O)N[C@H](C(=O)NC)C(C)C)C(C)C,EC50,-,MT-4,cytopathic effect / XTT,-,1.9 µM
O=S(=O)(O)OCC1OC(OC2C(COS(=O)(=O)O)OC(O)C(O)C2OS(=O)(=O)O)C(OS(=O)(=O)O)C(O)C1OC1OC(COS(=O)(=O)O)C(OC2OC(COS(=O)(=O)O)C(OC3OC(COS(=O)(=O)O)C(OC4OC(COS(=O)(=O)O)C(OS(=O)(=O)O)C(OS(=O)(=O)O)C4O)C(OS(=O)(=O)O)C3O)C(O)C2OS(=O)(=O)O)C(OS(=O)(=O)O)C1O,EC50,IIIB,MT-4,cytopathic effect / MTT,-,207 µg/mL
CN1C(=O)N(Cc2ccccc2)S(=O)(=O)c2cscc21,EC50,-,CEM,syncytia,RT-V106A,>324 µM
O=C(NCc1ccc(F)cc1)c1nc(N2CCCCS2(=O)=O)c2cccnc2c1O,EC50,1357 Primary R5 strain,PBMC,p24,-,<0.008 µM
Cc1ccc(-n2c(C)nnc2SCC(=O)Nc2cccc(Cl)c2)cc1,EC50,NL4-3,HeLa + HeLa-JC53,luciferase,RT-K103N Y181C,>10 µM
Nc1nc(Cl)c2ncn([C@H]3C=C[C@@H](CO)C3)c2n1,EC50,-,MT-2,cytopathic effect / XTT,-,0.4 µg/mL
CNC(=O)[C@@H](NC(=O)[C@H](OCc1ccccc1)[C@H](O)[C@@H](O)[C@@H](OCc1ccccc1)C(=O)N[C@H](C(=O)NC)C(C)C)C(C)C,EC50,-,MT-4,-,-,1.3 µM
Cc1cn([C@H]2C[C@H](N=[N+]=[N-])[C@@H](CO)O2)c(=O)[nH]c1=O,EC50,IIIB,MT-4,cytopathic effect,-,0.004 µM
Cc1ccc(NC(=O)CSc2nnc(C)n2-c2cccc3cccnc23)c(Cl)c1,EC50,NL4-3,HeLa + HeLa-JC53,luciferase,RT-Y188L,5.7 µM
Cc1cn([C@H]2C[C@H](N=[N+]=[N-])[C@@H](CO)O2)c(=O)[nH]c1=O,EC50,BCF02,TZM-bl,luciferase / luminescence,-,0.00617 µM
Cc1ncnc(C)c1C(=O)N1CCC(C)(N2CCN([C@@H](Cc3ccccc3)c3ccc(C(F)(F)F)cc3)[C@@H](C)C2)CC1,EC50,RU570 Clinical isolates,PBMC,-,-,<0.004 µM
O=C1CSC(c2c(Cl)cccc2Cl)N1Cc1ccco1,EC50,IIIB,MT-4,cytopathic effect,RT,0.204 µM
Cc1ccc(NC(=O)CSc2nnc(C)n2-c2ccc(C)c3ccccc23)c(Cl)c1,EC50,NL4-3,HeLa + HeLa-JC53,luciferase,RT-K103N Y181C,0.016 µM
Cc1cn([C@H]2C[C@H](F)[C@@H](CO)O2)c(=O)[nH]c1=O,EC50,IIIB,MT-4,cytopathic effect,-,0.001 µM
Cc1nnc(SCC(=O)Nc2ccc(S(N)(=O)=O)cc2Cl)n1-c1cc(Br)cc2cccnc12,EC50,NL4-3,HeLa + HeLa-JC53,luciferase,RT-Y188L,0.19 µM
Cc1cn([C@H]2C[C@H](N=[N+]=[N-])[C@@H](CO)O2)c(=O)[nH]c1=O,EC50,NL4-3,CEM + CEM-SS,XTT,-,0.001 µM
CC(=O)c1ccc(C)cc1NC(C(N)=O)c1c(Cl)cccc1Cl,EC50,HXB2,-,recombinant virus assay,-,0.017 µM
Nc1n[nH]c2ccc(CN3C(=O)N(Cc4ccc5ccccc5c4)[C@H](Cc4ccccc4)[C@H](O)[C@@H](O)[C@H]3Cc3ccccc3)cc12,EC90,RF,MT-2,-,-,0.023 µM
Cc1ccc(NC(=O)CSc2nnc(C)n2-c2ccc(Cl)c3ccccc23)c(Cl)c1,EC50,NL4-3,HeLa + HeLa-JC53,luciferase,RT-K103N Y181C,0.19 µM
CC(C)CN(C[C@@H](O)[C@H](Cc1ccccc1)NC(=O)O[C@H]1CCOC1)S(=O)(=O)c1ccc(N)cc1,EC50,LAI,MT-4,cytopathic effect / MTT,-,0.036 µM
COC(=O)[C@H](Cc1c[nH]c2ccccc12)NP(=O)(OC[C@H]1O[C@@H](N2C(=O)NC(=O)C(C)(Br)C2OC)C[C@@H]1N=[N+]=[N-])Oc1ccccc1,EC50,IIIB,PBMC,p24 / ELISA,-,0.14 µM
COc1ccc([C@@H](CNC(=O)c2ccccc2)OC)cc1,EC50,IIIB,H9,p24,-,<1.49 µg/mL
C[C@H]1/C=C/[C@@]2(C)CC[C@@H](C(C)(C)O)[C@@H]2[C@@H](O)C[C@](C)(O)/C=C/C1,EC50,95BRRJ021 R5,PBMC,p24,-,<25 µM
CCCc1cc(=O)oc2c3c(c4c(c12)OC(C)(C)C=C4)O[C@@H](C)[C@H](C)[C@@H]3O,EC50,TIBO R82150-resistant (RT A98G V108I),CEM + CEM-SS,XTT,RT-A98G V108I,1.6 µM
CCCCCCCCCCCCCCCCCCOC1OC(COS(=O)(=O)O)C(OC2OC(COS(=O)(=O)O)C(OC3OC(COS(=O)(=O)O)C(OC4OC(COS(=O)(=O)O)C(OC5OC(COS(=O)(=O)O)C(OC6OC(COS(=O)(=O)O)C(OS(=O)(=O)O)C(OS(=O)(=O)O)C6O)C(OS(=O)(=O)O)C5O)C(O)C4OS(=O)(=O)O)C(O)C3OS(=O)(=O)O)C(OS(=O)(=O)O)C2O)C(OS(=O)(=O)O)C1O,EC50,IIIB,MT-4,cytopathic effect / MTT,-,0.4 µg/mL
Nc1ccn([C@H]2CC[C@@H](CO)O2)c(=O)n1,EC50,-,ATH8,cytopathic effect / XTT,-,0.24 µg/mL
N#CCN1C(=O)N(Cc2cccc(F)c2)S(=O)(=O)c2cscc21,EC50,IIIB,CEM,syncytia,-,0.6 µM
CCCc1cc(=O)oc2c3c(c4c(c12)OC(C)(C)C=C4)O[C@H](C)[C@@H](C)[C@@H]3O,EC50,BaL,MM + M/M,p24,-,0.05 µM
O=S(=O)(O)OCC1OC(O)C(OS(=O)(=O)O)C(OS(=O)(=O)O)C1OC1OC(COS(=O)(=O)O)C(OC2OC(COS(=O)(=O)O)C(OC3OC(COS(=O)(=O)O)C(OC4OC(COS(=O)(=O)O)C(OS(=O)(=O)O)C(OS(=O)(=O)O)C4OS(=O)(=O)O)C(OS(=O)(=O)O)C3OS(=O)(=O)O)C(OS(=O)(=O)O)C2OS(=O)(=O)O)C(OS(=O)(=O)O)C1OS(=O)(=O)O,EC50,IIIB,MT-4,cytopathic effect / MTT,-,267 µg/mL
Cc1cn([C@H]2C[C@H](N=[N+]=[N-])[C@@H](CO)O2)c(=O)[nH]c1=O,EC50,IIIB,PBMC,p24 / ELISA,-,0.005 µM
Cc1ccnc2c1NC(=O)c1cccnc1N2C1CC1,EC90,Subtype B isolate,PBMC,RT activity,-,0.22 µM
O=C1CSC(c2ccnc3ccccc23)N1Cc1ccco1,EC50,IIIB,MT-4,cytopathic effect,-,66.05 µM
Cc1nnc(SCC(=O)Nc2ccccc2Br)n1-c1cccc2ccccc12,EC50,NL4-3,HeLa + HeLa-JC53,luciferase,RT-Y188L,0.72 µM
COC(=O)[C@H](C)NP(=O)(OC[C@H]1O[C@@H](N2C(=O)NC(=O)C(C)(Br)C2OC)C[C@@H]1N=[N+]=[N-])Oc1ccc(Br)cc1,EC50,IIIB,PBMC,p24 / ELISA,-,0.005 µM
CCc1cn([C@H]2C[C@H](F)[C@@H](CO)O2)c(=O)[nH]c1=O,EC50,IIIB,MT-4,cytopathic effect,-,300 µM
COc1ccc2c(OC)c3ccoc3nc2c1OC,EC50,IIIB,H9,p24,-,7.41 µg/mL
O=C1CSC(c2c(F)cccc2F)N1Cc1ccco1,EC50,IIIB,MT-4,cytopathic effect,RT,2.88 µM
O=C(N[C@H]1c2ccccc2C[C@H]1O)[C@H](CCc1ccccc1)[C@H](O)[C@H](O)[C@@H](CCc1ccccc1)C(=O)NC1c2ccccc2C[C@H]1O,EC50,-,MT-4,cytopathic effect / XTT,-,>10 µM
CCN1C(=O)N(Cc2ccccc2Cl)S(=O)(=O)c2cscc21,EC50,RF,MT-4,syncytia,-,10.9 µM
COC(=O)[C@H](Cc1ccccc1)NP(=O)(OC[C@H]1O[C@@H](N2C(=O)NC(=O)C(C)(Br)C2OC)C[C@@H]1N=[N+]=[N-])Oc1ccc(Br)cc1,EC50,IIIB,PBMC,p24 / ELISA,-,0.035 µM
CCC[C@@H](c1ccc(C(F)(F)F)cc1)N1CCN(C2(C)CCN(C(=O)c3c(C)ncnc3C)CC2)C[C@@H]1C,EC90,301657 Clinical isolates,PBMC,-,-,0.00009 µM
Cc1ccnc2c1NC(=O)c1cccnc1N2C1CC1,EC50,TEKI(SI),PBMC,RT activity,-,0.1 µM
CC12OC[C@H]3O[C@H](C[C@@H]3N=[N+]=[N-])N1C(=O)NC(=O)[C@@]2(C)Br,EC50,IIIB,MT-4,p24,-,0.008 µM

For reference, 4 entries again:

{"SMILES": "Nc1nc(Cl)c2ncn([C@H]3C=C[C@@H](CO)C3)c2n1", "endpoint": "EC50", "cell line": "MT-2", "method": "cytopathic effect / XTT", "result": "0.4 µg/mL"}
{"SMILES": "CNC(=O)[C@@H](NC(=O)[C@H](OCc1ccccc1)[C@H](O)[C@@H](O)[C@@H](OCc1ccccc1)C(=O)N[C@H](C(=O)NC)C(C)C)C(C)C", "endpoint": "EC50", "cell line": "MT-4", "result": "1.3 µM"}
{"SMILES": "C[C@H]1/C=C/[C@@]2(C)CC[C@@H](C(C)(C)O)[C@@H]2[C@@H](O)C[C@](C)(O)/C=C/C1", "endpoint": "EC50", "strain or isolate": "95BRRJ021 R5", "cell line": "PBMC", "method": "p24", "result": "<25 µM"}
{"SMILES": "O=S(=O)(O)OCC1OC(O)C(OS(=O)(=O)O)C(OS(=O)(=O)O)C1OC1OC(COS(=O)(=O)O)C(OC2OC(COS(=O)(=O)O)C(OC3OC(COS(=O)(=O)O)C(OC4OC(COS(=O)(=O)O)C(OS(=O)(=O)O)C(OS(=O)(=O)O)C4OS(=O)(=O)O)C(OS(=O)(=O)O)C3OS(=O)(=O)O)C(OS(=O)(=O)O)C2OS(=O)(=O)O)C(OS(=O)(=O)O)C1OS(=O)(=O)O", "endpoint": "EC50", "strain or isolate": "IIIB", "cell line": "MT-4", "method": "cytopathic effect / MTT", "result": "267 µg/mL"}

Blank or dashed fields: not listed here. ECn is the concentration giving n% inhibition of infection, replication or growth.